A mixed list of measured activities; the numbers were collected in NIAID ChemDB.

All rows: whole-cell or culture tests; species: Haemophilus influenzae

Lines come from different laboratories, so protocols vary. MIC50, MIC90 and the like: level of inhibition, or share of isolates inhibited.

SMILES,strain or isolate,read-out,value
CC[C@H]1OC(=O)[C@H](C)C(=O)[C@H](C)[C@@H](O[C@@H]2O[C@H](C)C[C@H](N(C)C)[C@H]2O)[C@@]2(C)C[C@@H](C)C(=NC(=O)CO)[C@H](C)C(OC/C(=C\C=C\c3ccccc3)CO2)[C@]1(C)O,33929 (ampicillin-resistant),MIC,16 µg/mL
CC[C@H]1OC(=O)[C@H](C)C(=O)[C@H](C)[C@@H](O[C@@H]2O[C@H](C)C[C@H](N(C)C)[C@H]2O)[C@@]2(C)C[C@@H](C)C(=NC(C)=O)[C@H](C)[C@@H](OC/C(=N\OCc3ccc(-n4cccn4)nc3)CO2)[C@]1(C)O,25 strains,MIC50,4 µg/mL
COCC1=C(C(=O)O)N2C(=O)C(NC(=O)/C(=N/OC)c3csc(N)n3)C2SC1,434 strains,MIC50,≤0.06 µg/mL
CC[C@H]1OC(=O)[C@H](C)C(=O)[C@H](C)[C@@H](O[C@@H]2O[C@H](C)C[C@H](N(C)C)[C@H]2O)[C@@]2(C)C[C@@H](C)C(=NC(C)=O)[C@H](C)C(OC/C(=C\C#Cc3ccc(N)nc3)CO2)[C@]1(C)O,33929 (ampicillin-resistant),MIC,4 µg/mL
CC(=O)NC[C@H]1CN(c2ccc(-c3noc(C#N)n3)c(F)c2)C(=O)O1,UC 30063,MIC,>16 µg/mL
CO/N=C1\CN(c2nc3c(cc2F)c(=O)c(C(=O)O)cn3C2CC2)CC1CN,24 strains,MIC50,0.016 µg/mL
CO/N=C(/C(=O)N[C@@H]1C(=O)N2C(C(=O)O)=C(COC(N)=O)CS[C@H]12)c1ccco1,434 strains,MIC50,0.5 µg/mL
CC(=O)NC[C@H]1CN(c2ccc(-c3noc(C(F)(F)F)n3)c(F)c2)C(=O)O1,UC 30063,MIC,>16 µg/mL
CC[C@H]1OC(=O)[C@H](C)[C@@H](O[C@H]2C[C@@](C)(OC)[C@@H](O)[C@H](C)O2)[C@H](C)[C@@H](O[C@@H]2O[C@H](C)C[C@H](N(C)C)[C@H]2O)[C@](C)(O)C[C@@H](C)/C(=N\OCOCCOC)[C@H](C)[C@@H](O)[C@]1(C)O,434 strains,MIC90,16 µg/mL
CCC(=O)N=C1[C@H](C)C[C@@]2(C)OC/C(=C/C=C/c3ccccc3)COC([C@H]1C)[C@](C)(O)[C@@H](CC)OC(=O)[C@H](C)C(=O)[C@H](C)[C@H]2O[C@@H]1O[C@H](C)C[C@H](N(C)C)[C@H]1O,33929 (ampicillin-resistant),MIC,32 µg/mL
C[C@@H]1O[C@@H]1P(=O)(O)O,ATCC31517,MIC,8 µg/mL
COc1c(N2C[C@@H]3CCCN[C@@H]3C2)c(F)cc2c(=O)c(C(=O)O)cn(C3CC3)c12,233 isolates,MIC90,0.04 µg/mL
CC[C@H]1OC(=O)[C@H](C)C(=O)[C@H](C)[C@@H](O[C@@H]2O[C@H](C)C[C@H](N(C)C)[C@H]2O)[C@@]2(C)C[C@@H](C)C(=NC(=O)CN)[C@H](C)C(OC/C(=C\C=C\c3ccccc3)CO2)[C@]1(C)O,33929 (ampicillin-resistant),MIC,64 µg/mL
CC[C@H]1OC(=O)[C@H](C)C(=O)[C@H](C)[C@@H](O[C@@H]2O[C@H](C)C[C@H](N(C)C)[C@H]2O)[C@](C)(OC)C[C@@H](C)C(=O)[C@H](C)[C@H]2N(CCCCn3cnc(-c4cccnc4)c3)C(=O)O[C@]12C,25 strains,MIC90,>64 µg/mL
CC(=O)NC[C@H]1CN(c2ccc(-c3ccn(CC#N)n3)c(F)c2)C(=O)O1,UC 30063,MIC,32 µg/mL
CC[C@H]1OC(=O)C[C@@H](O)[C@H](C)[C@@H](O[C@@H]2O[C@H](C)[C@@H](O)[C@H](N(C)C)[C@H]2O)C(C=O)C[C@@H](C)C(=O)/C=C/C(C)=C/[C@@H]1COC(=O)Nc1ccc(Cl)cc1,33929 (ampicillin-resistant),MIC,1 µg/mL
CCOC(=O)c1nc(-c2ccc(N3C[C@H](CNC(C)=O)OC3=O)cc2F)ns1,UC 30063,MIC,>16 µg/mL
CC[C@H]1OC(=O)C[C@@H](O)[C@H](C)[C@@H](O[C@@H]2O[C@H](C)[C@@H](O)[C@H](N(C)C)[C@H]2O)C(C=O)C[C@@H](C)C(=O)/C=C/C(C)=C/[C@@H]1COC(=O)Nc1ccccc1,33929 (ampicillin-resistant),MIC,1 µg/mL
COc1c(N2CCNC(C)C2)c(F)cc2c(=O)c(C(=O)O)cn(C3CC3)c12,66 strains,MIC90,0.06 µg/mL
CC[C@H]1OC(=O)C[C@@H](O)[C@H](C)[C@@H](O[C@@H]2O[C@H](C)[C@@H](O)[C@H](N(C)C)[C@H]2O)C(C=O)C[C@@H](C)C(=O)/C=C/C(C)=C/[C@@H]1COCOC,33929 (ampicillin-resistant),MIC,2 µg/mL
C=C1COC2[C@@H](C)C(=NC(C)=O)[C@H](C)C[C@@](C)(OC1)[C@H](O[C@@H]1O[C@H](C)C[C@H](N(C)C)[C@H]1O)[C@@H](C)C(=O)[C@@H](C)C(=O)O[C@H](CC)[C@@]2(C)O,33929 (ampicillin-resistant),MIC,>64 µg/mL

A second listing of 2 rows from above:

SMILES | strain or isolate | read-out | value
CC[C@H]1OC(=O)C[C@@H](O)[C@H](C)[C@@H](O[C@@H]2O[C@H](C)[C@@H](O)[C@H](N(C)C)[C@H]2O)C(C=O)C[C@@H](C)C(=O)/C=C/C(C)=C/[C@@H]1COC(=O)Nc1ccccc1 | 33929 (ampicillin-resistant) | MIC | 1 µg/mL
CO/N=C1\CN(c2nc3c(cc2F)c(=O)c(C(=O)O)cn3C2CC2)CC1CN | 24 strains | MIC50 | 0.016 µg/mL